Human monoclonal antibodies against the spike receptor-binding domain (heavy:light variable regions). IC50 against pseudoviruses bearing the spike of naturally observed variants; lower = stronger; >10 µg/ml means not reached at the top dose. No active / inactive call. The stated detection limit is 0.0005 µg/ml; values near or below 0.001 µg/ml lie at the floor of the assay.
B1: BD56-1093 (protein)
chain 1: QITLKESGPTLVKPTQTLTLTCTFSGFSLSTSGVGVGWIRQPPGKALEWLALIYWDDDKRYGPALKNRLTITKDTSKNQVVLTLTKMDPADTATYYCAHFEATTNPLNWFDPWGQGTLVTVSS
chain 2: QSVLTQSPSVSEAPRQRVTISCTGSTSNIGNNPVNWYQQLPGKAPKLLIYYDDMVPSGVSDRFSGSKSGTTASLAISGLQSEDEAEYYCAAWDDRLHGPVFGGGTKLTVL
B2: BD56-1057 (protein)
chain 1: QVQLVQSGTEVKKPGASVKISCKASGYSFNSHYMHWVRQAPGQGLEWMGIINPSAGSTTYAQKLQGRVTMTSDTSTTTVYMELRSLRSEDTAVYFCATDIAVVPATMSLEFWGPGTLVTVSS
chain 2: DIQLTQSPSSLSASVGDRVTITCRASQGIGNYLAWYQQKPGKAPKLLIYATSTLQSGVPSRFSGSGSGTDFTLTISSLQPEDFATYYCQQLNSYPPYTFGQGTKLEIK
B3: BD56-965 (protein)
chain 1: EVQLVESGGGLVKPGGSLRLSCAASGFMFSSYSINWVRQTPGKGLEWVSSISGLSDYISYGDSVKGRFTISRDNAKNSLYLQMNSLRADDTAVYYCARRGLGGEFLDVWGQGTTVTVSS
chain 2: DIVMTQSPDSLPVSLGERATINCKSSQSVLYNSNNKNYLAWYQQKPGQPPKLLIYWASTREAGVPDRFSGSGSGTDFTLTISSLQAEDVAVYYCQQYYSSPITFGQGTRLEIK
B4: BD56-971 (protein)
chain 1: EVQLVQSGAEVKKPGESLKISCKGSGYSFTSNWIGWVRQMPGKGLEWMGIIYPGDSDTRYSPSFQGQVTISADKSISTAYLQWSSLKASDTAMYYCARLGDIQTIDYWGQGTLVTVSS
chain 2: SSELTQDPAVSVALGQTVRITCQGDSLRSYYASWYQQKPGQAPVLVIYSQIRRPSGIPDRFSGSSSGSTASLTITGVQAEDEADYYCSYRDSSSNHLVFGGGTKLTVL
B5: BD56-1064 (protein)
chain 1: QVQLVESGGGVVQPGRSLRLSCVVSGFTFSRYGMHWVRQAPGKGLEWVAVILYDGSNKDYADSVKGRFTISRDNSKNTLYLQMNSLRTEDTAVYYCAKVVGTYCSGGNCYGATLDYWGQGTLVTVSS
chain 2: DIQMTQSPSSLSASVGDRVTITCQASQDITNYLNWYQQKPGKAPKLLIYDASNLETGVPSRFSGSGSGTDFTFTINSLQPEDIATYYCQQYHYLPITFGQGTRLDIK
B6: BD56-977 (protein)
chain 1: EVQLVESGGGLVQPGGSQRLSCAAAGFTFSRHWMHWIRQAPGKGLVWVARINSVGSIITYADSVKGRFTISRDNAKNTLHLQMNSLRAEDTAVYYCVRDATYYNLDYWGQGTLVTVSS
chain 2: NFMLTQPHSVSESPGKTVTISCTGSGGSIASNYVQWYQQRPGSGPTTVIYEDNQRPSGVPDRFSGSIDSSSNSASLTISGLKTEDEADYYCQSFDGDNQGGVFGGGTKLTVL
B7: BD56-1038 (protein)
chain 1: QVQLVQSGAEVKKPGASVKVSCKASGYNFKGYAINWVRQAPGQRLEWLGWINAGYGNTRYSQKLQGRVTISTDTSASTAYMVLSDLRSEDTAVYYCAKDVAVGHNYFDFWGLGTLVTVSS
chain 2: DIQMTQSPSTLSASVGDRVTITCRASQSLSSWVAWYQQKPGKAPKFLIYKASSLESGVPSRFSGSGYGTEFTLTINNLQPDDFATYFCQQYNSYPLTFGQGTRLEIK

Experiments:
Assay in all cases: pseudovirus neutralization IC50; higher = weaker neutralization
[1] = molecular target: SARS-CoV-2 Omicron BA.1 spike pseudovirus
Experimental: (§1)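 Single-round VSV luciferase pseudovirus mixed with antibody dilutions for 1 h and put on Huh-7 cells for about a day; IC50 from the dose curve.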

[2] = molecular target: SARS-CoV-2 Omicron BA.2 spike pseudovirus
Experimental: as §1

[3] = molecular target: SARS-CoV-2 Omicron BA.2.75 spike pseudovirus
Experimental: as §1

[4] = molecular target: SARS-CoV-2 Omicron BA.5 spike pseudovirus
Experimental: as §1

[5] = molecular target: SARS-CoV-2 Omicron BQ.1.1 spike pseudovirus
Experimental: as §1

[6] = molecular target: SARS-CoV-2 Omicron XBB spike pseudovirus
Experimental: as §1

[7] = molecular target: SARS-CoV-2 early D614G spike pseudovirus
Experimental: as §1

Row | Binder | pseudovirus neutralization IC50 [1] | pseudovirus neutralization IC50 [2] | pseudovirus neutralization IC50 [3] | pseudovirus neutralization IC50 [4] | pseudovirus neutralization IC50 [5] | pseudovirus neutralization IC50 [6] | pseudovirus neutralization IC50 [7]
1 | B1 | > 10 mg/L | > 10 mg/L | > 10 mg/L | > 10 mg/L | > 10 mg/L | > 10 mg/L | > 10 mg/L
2 | B2 | > 10 mg/L | > 10 mg/L | > 10 mg/L | > 10 mg/L | > 10 mg/L | > 10 mg/L | > 10 mg/L
3 | B3 | 0.0209 mg/L | 0.00936 mg/L | 0.0136 mg/L | > 10 mg/L | > 10 mg/L | > 10 mg/L | 0.00301 mg/L
4 | B4 | 1.03 mg/L | 2.18 mg/L | 2.05 mg/L | 1.09 mg/L | 0.752 mg/L | 1.27 mg/L | 3.6 mg/L
5 | B5 | 3.53 mg/L | 4.26 mg/L | 3.14 mg/L | 1.86 mg/L | 2.57 mg/L | 2.39 mg/L | > 10 mg/L
6 | B6 | 3.01 mg/L | > 10 mg/L | > 10 mg/L | > 10 mg/L | > 10 mg/L | > 10 mg/L | 0.96 mg/L
7 | B7 | > 10 mg/L | > 10 mg/L | > 10 mg/L | > 10 mg/L | > 10 mg/L | > 10 mg/L | > 10 mg/L
